Reference: US20100129432A1, “MICROORGANISM-KILLING COMBINATION” (TAIPEI MEDICAL UNIVERSITY, priority 2008, published 2010)

Test system: Candida albicans
Test: Toluidine blue or Methylene Blue mediated PDI with or without 0.6% chitosan, survival fraction

Compound	PDI effect (survival fraction) (0.5 mM MB, 630±5 nm 50 J/cm^2, 0.6% (w/v) chitosan 90 minutes after the PDI)	PDI effect (survival fraction) (0.5 mM TB, 630±5 nm 50 J/cm^2, 0.6% (w/v) chitosan 30 minutes after the PDI)
CN(C)c1ccc2nc3ccc(=[N+](C)C)cc-3sc2c1 [MB, methylene blue]	complete eradiation	–
Cc1cc2nc3ccc(N(C)C)cc3[s+]c2cc1N.[Cl-] [TB, toluidine blue]	–	complete eradiation
